The values below come from paper PMC3334931, “Characterization of the Single Stranded DNA Binding Protein SsbB Encoded in the Gonoccocal Genetic Island” (PLoS ONE, 2012).

The exact form of at least one protein or probe is not confirmed. For some assays here: The comparison behind a weaker result is the experiment's own reference, which may not be listed here. At least one verdict rests on a figure or table, not on a statement of the authors. Tags and fusion partners may be left off the protein sequences shown.

In series [1] the target is T1, His-SsbB (Neisseria gonorrhoeae MS11) (UniProt Q5EP75).
T1 sequence (looked up): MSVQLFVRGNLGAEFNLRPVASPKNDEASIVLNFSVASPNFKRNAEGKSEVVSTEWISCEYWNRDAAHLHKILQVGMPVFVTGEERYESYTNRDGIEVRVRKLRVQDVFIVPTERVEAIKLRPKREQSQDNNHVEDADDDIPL
The experiment in a line: EMSA. The note with it: lower affinity than native; EMSA: SBA buffer (10 mM NaOH, 2 mM EDTA, boric acid to pH 7.5), optional 10 mM MgCl2 and/or NaCl up to 500 mM, 4 C 15 min; recombinant protein; residues 1-143; protein details: N-terminal 10xHis; label: 5' Cy3; single-stranded DNA.

The target of series [2] is T2, OneSTrEP-SsbB (Neisseria gonorrhoeae MS11) (UniProt Q5EP75).
T2 sequence (looked up): T1 sequence (looked up)
Briefly: EMSA. The note with it: no difference from native; EMSA: SBA buffer (10 mM NaOH, 2 mM EDTA, boric acid to pH 7.5), optional 10 mM MgCl2 and/or NaCl up to 500 mM, 4 C 15 min; recombinant protein; residues 1-143; protein details: N-terminal OneSTrEP; label: 5' Cy3; single-stranded DNA.

For series [3], the target named is T3, SsbB (native) (Neisseria gonorrhoeae MS11) (UniProt Q5EP75).
T3 sequence (looked up): T1 sequence (looked up)
The experiment in a line: EMSA (Coomassie). The note with it: 1 uM tetramer, EMSA: SBA buffer (10 mM NaOH, 2 mM EDTA, boric acid to pH 7.5), optional 10 mM MgCl2 and/or NaCl up to 500 mM, 4 C 15 min, recombinant protein, residues 1-143, single-stranded DNA.

As for “TTTTTTTTTTTTTTTTTTTTTTTTTTTTTTTTTTT [Cy3-dT35]”, the binding result in series [1] is recorded as “binds more weakly”; in series [2], “binds”.

In the case of “TTTTTTTTTTTTTTTTTTTTTTTTTTTTTTTTTTT [dT35]”, the binding result in series [3] (5 uM oligo) was “binds”.

Consider “TTTTTTTTTTTTTTTTTTTTTTTTTTTTTTTTTTTTTTTTTTTTTTTTTTTTTTTTTTTTTTTTTTT [dT67]”, for which the binding result in series [3] (0.25 uM oligo, one tetramer bound) is listed as “binds”.

In the case of “TTTTTTTTTTTTTTTTTTTTTTTTTTTTTTTTTTTTTTTTTTTTTTTTTTTTTTTTTTTTTTTTTTTTTTTTTT [dT74]”, the binding result in series [3] (0.25 uM oligo, two tetramers bound) is on record as “binds”.
